# Library screen at single concentrations

Data taken from ChEMBL document CHEMBL3988442, “University of Dundee, Small-Polar-MMV Screening Library” (2021).

Mtb glucose medium: 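Growth of Mycobacterium tuberculosis over 3 days (7H9 medium with glucose and tyloxapol); the read-out is not stated. Concentration: 50 µM. Higher reads as more growth inhibition (inferred: compounds with an IC50 in retests scored well above the rest). About 69,000 compounds were tested under these conditions; 1.1% (about 760) showed 50% or more at least once.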
Mtb cholesterol medium: 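Phenotypic screen: M. tuberculosis growth, cholesterol and DPPC medium, 4 days; the read-out is not stated. Compounds at 50 µM. Direction is inferred from retests: higher values go with more growth inhibition. Size under these conditions: about 69,000 compounds, about 370 of them at 50% or above in at least one test.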

Each number is a percent effect as filed. How 0% and 100% were set is not recorded. Most values in the screen are low, and negative values occur. This is part of a subset picked to be rich in strong results. Two or more numbers in one place are separate tests of the same structure; such repeats can differ widely. A dash means the value is not listed here; it may have been measured.

| # | Compound | Mtb glucose medium | Mtb cholesterol medium |
|---|---|---|---|
| 1 | `COC(=O)CCC(=O)N1CCC2(CN(Cc3ccc(Cl)cc3)C2)C1` | -16.74 | - |
| 2 | `Cn1cnc2c1CCN(c1ccnc(-c3ccccc3)n1)C2` | 54.62 | 54.82 |
| 3 | `CCc1cc(N(C)Cc2ccncn2)n2nc(C)c(C)c2n1` | 77.46 | 68.2 |
| 4 | `Cc1ccc(CSc2nc(N)cc(NCCC(=O)N3CCCC3)n2)cc1` | 37.2 & 12.89 | 7.066 |
| 5 | `O=C(NC1CCN(c2ncccn2)CC1)c1cc2c(cc1O)CCCC2` | 22.67 & 16.95 | - |
| 6 | `CC(Cn1cc(Br)cn1)C(=O)Nc1ccc(Cl)cn1` (centres undefined) | 56.17 | - |
| 7 | `Cc1cc(C)n(CCCn2cncc2-c2ccc3c(c2)CC(C)N3C)n1.Cl` (centres undefined) | 35.05 | 23.79 & 28.5 |
| 8 | `Cc1ccc(OC(C)CNC(=O)c2c[nH]nn2)cc1` (centres undefined) | 3.643 | 0.6963 & -2.592 |
| 9 | `CNS(=O)(=O)CC(=O)N(Cc1c(F)cccc1Cl)C1CC1` | 16.26 | -6.095 |
| 10 | `CCNc1ncc2c(n1)CN(c1ccc(Cl)cc1)C2=O` | 26.92 | - |
| 11 | `CN1CCC(N2CC[C@H](c3nc4ccc(C(F)(F)F)cc4[nH]3)C2)CC1` | 17.42 & 51.51 | - |
| 12 | `CC(C)c1nc(C2CCCN(C(=O)c3ccc4c(c3)COC4)C2)no1` (centres undefined) | - | 2.362 |
| 13 | `CNc1cc(N2CCCC2CNCc2c[nH]nc2C(C)(C)C)ncn1` (centres undefined) | -9.785 | -7.193 & -11.22 |
| 14 | `CN(C)C(=O)c1cccc(CNc2ccc(C#N)cn2)c1` | 0.8814 | -16.43 |
| 15 | `COc1ccc(C(=O)N2CCOC(Cc3cccc(C(F)(F)F)c3)C2)o1` (centres undefined) | 73.12 & 62.47 | - |
| 16 | `CN1CCc2[nH]nc(C(=O)N3CCC4(CCCO4)CC3)c2C1` | 23.02 | - |
| 17 | `Cc1ccc(CN(CCCN(C)C)Cc2cnc(C)n2C)o1.O=C(O)CC(O)(CC(=O)O)C(=O)O` | 20.7 | - |
| 18 | `Cc1ccc(CN[C@@H]2COC[C@H]2Cc2cc(C)no2)cc1.O=C(O)CC(O)(CC(=O)O)C(=O)O` | -6.832 | 2.727 |
| 19 | `OCCN(Cc1ccccc1)Cc1nc(-c2ccc3c(c2)OCO3)no1` | 7.536 | - |
| 20 | `Cc1noc(NCc2ccc(F)cc2)n1` | 7.056 | - |
| 21 | `Clc1cccc(CNC2CCN(CCc3ccncc3)CC2)c1` | -7.1 | -8.966 |
| 22 | `COC(=O)NCCC(=O)NC(c1ccc(Cl)cc1)C(F)(F)F` (centres undefined) | 20.35 & -1.261 | - |
| 23 | `Br.COc1ccc(OCCc2cc(C3CCN(CC(C)C)C3)n[nH]2)cc1` (centres undefined) | - | 10.48 & 23.16 |
| 24 | `CCc1noc(CN(C)C(=O)C(C)(C)Oc2cccc(Cl)c2)n1` | -30.19 | - |
| 25 | `COc1ccc(NC(C)C(=O)N2CCCC2)cn1` (centres undefined) | -63.51 & -22.18 | -16.05 |
| 26 | `CN1CCOC(CNCCOc2ccc(C#N)cc2)C1` (centres undefined) | - | -11.15 & -3.97 |
| 27 | `O=C(NC1CCCN(CCCc2ccccc2)C1)c1ccc(Cl)s1` (centres undefined) | 61.81 | 73.35 |
| 28 | `[H][C@]12CO[C@H](CNS(C)(=O)=O)[C@@]1([H])CCN(C(=O)c1cnoc1C)C2` | -16.99 & -4.298 | - |
| 29 | `Cc1cccc(Cc2cc(C)nc(C3CCCNC3)c2)c1` (centres undefined) | 57.01 | - |
| 30 | `CC(O)CNCc1ccccc1C(F)(F)F.Cl` (centres undefined) | 55.63 | - |
| 31 | `Cc1ccc2[nH]c(=O)cc(C(=O)NCCCn3nccc3C3CC3)c2c1` | - | -10.07 & 54.51 |
| 32 | `O=C(NCCN1CCCCC1)c1nc2ccccc2c(=O)[nH]1` | -12.42 | -20.71 |
| 33 | `OC1CCN(c2nc(-c3ccccc3)no2)CC1` | -8.685 & -7.539 | -1.133 |
| 34 | `COc1cc(Oc2cnc3ccccc3n2)ccc1CN1CCCC1` | 72.93 | 53.88 |
| 35 | `N#Cc1cccc(S(=O)(=O)N2CCCCC2CCN2CCCC2=O)c1` (centres undefined) | 13.42 | - |
| 36 | `Cc1cc2nc(SCC(=O)N3CCCC3)n(-c3ccccc3)c(=O)c2[nH]1` | -5.749 & 3.952 | - |
| 37 | `Cc1cc(N2CCC(Cc3ccccc3)CC2)ncn1` | 11.19 & 20.81 | - |
| 38 | `O=C(NCC1CCCCO1)c1ccc(-c2cccs2)[nH]c1=O` (centres undefined) | 6.231 | -6.781 & -14.58 |
| 39 | `Cl.O=c1c2sccc2nc2n1CCN(Cc1ccc(F)c(F)c1)CC2` | 55.36 | 58.12 |
| 40 | `CSc1nc2ccsc2c(=O)n1CC(=O)NC1CCCCC1` | 20.43 | - |
| 41 | `Cc1nn(C)cc1S(=O)(=O)NCC(c1ccccc1)N1CCCCCC1.Cl` (centres undefined) | - | 33.41 & 89.95 |
| 42 | `CC(C(=O)Nc1ccccn1)n1ccc(C(F)(F)F)n1` (centres undefined) | -1.407 | - |
| 43 | `CC(C)N1CCCC(CN(C)c2ccc(Cn3ccnc3)cn2)C1` (centres undefined) | -2.179 & 3.577 | 4.855 & -2.069 |
| 44 | `CCc1cnc(N2CCN(Cc3ccncc3)CC2)s1` | 40.15 | - |
| 45 | `Cc1cc(C)cc(OCC(=O)N2CCCC2)c1` | 35.14 | - |
| 46 | `c1cnn(CC2CN(c3ncnc4c3CCC4)CCO2)c1` (centres undefined) | 50.79 & 3.236 | - |
| 47 | `O=C(Nc1nc(-c2ccccc2)ns1)N1CCC(F)CC1` | - | -0.2147 & -19.67 |
| 48 | `COc1c(Cl)cc(Cl)cc1CN1CCC(C(N)=O)C1` (centres undefined) | -4.559 & 78.5 | - |
| 49 | `CC(C)Oc1ncnc2c1CCN(Cc1ccco1)CC2.O=C(O)C(F)(F)F` | 2.151 & -0.03843 | -2.514 |
| 50 | `CC(C)(C)c1cnc(CN2C(=O)CC3(CCSC3)C2=O)o1` (centres undefined) | 21.05 & 40.41 | - |
| 51 | `Cc1nn2c(NCC(=O)NC3CC3)cc(-c3ccccc3)nc2c1C` | - | 58.28 & 47.02 |
| 52 | `Cc1ccn(-c2ccc(NCc3ccnc(N4CCCCC4)c3)nn2)n1` | - | 20.39 & -37.46 |
| 53 | `CC(=O)NCCCNCc1cc(F)ccc1Br` | 36.6 & 8.909 | - |
| 54 | `COc1ccccc1C(O)CNC(=O)NCc1csc(C)n1` (centres undefined) | -28.44 & 0.4063 | - |
| 55 | `CC(CNC(=O)c1cnccn1)Oc1ccc(F)cc1` (centres undefined) | 37.96 | - |
| 56 | `CNc1cc2c(nn1)CCN(C(=O)c1cccc3c1OCCO3)C2` | 66.33 | - |
| 57 | `CN[C@@H]1CCC[C@@H](Oc2ccccc2Oc2ccc(C)cc2)[C@@H]1O` | - | 54.54 & 46.96 |
| 58 | `Cc1noc(C)c1S(=O)(=O)N1CCc2nc(C3CCNCC3)ncc2C1.Cl` | -2.796 | - |
| 59 | `CCCc1ncc(CN(CCOC)Cc2cccs2)cn1` | 16.85 & 14.29 | 17.77 |
| 60 | `CN(C)CCNc1ccc(-c2nc(COc3ccccc3)no2)cn1` | 29.55 | 22.01 |
| 61 | `N#Cc1ccc(NC2CCN(c3ncccn3)CC2)cc1C(F)(F)F` | 75.66 | 67.39 |
| 62 | `CCC(C)Oc1ccc(CNCCNS(C)(=O)=O)cc1Cl` (centres undefined) | - | 75.46 |
| 63 | `CC(C)[C@@H]1CN(C(=O)NCc2ccco2)C[C@H]1N(C)C` | - | 72.06 |
| 64 | `O=C(NCCc1c[nH]c2ccccc12)C1(n2cnnn2)CCCCC1` | 56.36 | 71.95 |

7 of the entries, repeated:

Compound	Mtb glucose medium	Mtb cholesterol medium
CC(Cn1cc(Br)cn1)C(=O)Nc1ccc(Cl)cn1 (centres undefined)	56.17	-
CCc1cnc(N2CCN(Cc3ccncc3)CC2)s1	40.15	-
COc1ccc(C(=O)N2CCOC(Cc3cccc(C(F)(F)F)c3)C2)o1 (centres undefined)	73.12 & 62.47	-
CSc1nc2ccsc2c(=O)n1CC(=O)NC1CCCCC1	20.43	-
CN[C@@H]1CCC[C@@H](Oc2ccccc2Oc2ccc(C)cc2)[C@@H]1O	-	54.54 & 46.96
CC(C)(C)c1cnc(CN2C(=O)CC3(CCSC3)C2=O)o1 (centres undefined)	21.05 & 40.41	-
Cc1ccc(OC(C)CNC(=O)c2c[nH]nn2)cc1 (centres undefined)	3.643	0.6963 & -2.592